# Article PMC6377630, “NapM enhances the survival of Mycobacterium tuberculosis under stress and in macrophages” (Communications Biology, 2019)
# The exact form of at least one protein or probe is not confirmed. For some assays here: Protein sequences can lack the tags named with them.
# Columns and labels:
# DnaA + NapM = assay: EMSA; conditions: pH and temperature not stated, recombinant protein, label: FITC (5' end), probe letters rebuilt from the primers and the genome
# [1] = tested on: T1, NapM (Mycobacterium tuberculosis H37Ra); assay: EMSA; conditions: 1 uM probe, pH and temperature not stated, recombinant protein, label: FITC (5' end), probe letters rebuilt from the primers and the genome
# T1 sequence (looked up, limits assumed): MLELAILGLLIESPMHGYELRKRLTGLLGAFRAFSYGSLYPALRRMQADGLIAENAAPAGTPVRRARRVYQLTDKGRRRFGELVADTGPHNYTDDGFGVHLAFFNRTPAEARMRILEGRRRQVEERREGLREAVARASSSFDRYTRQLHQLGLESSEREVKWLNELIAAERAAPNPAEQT
sequence,measurement,setting,value
GTGTCGTGAGCTCACCGATCTTTCGTTGCCCAAAATCGGCCAAGCGTTCGGCCGTGATCACACAACCGTCATGTACGCCCAACGCAAGATCCTGTCCGAGATGGCCGAGCGCCGTGAGGTCTTTGATCACGTCAAAGAACTCACCACTCGCATCCGTCAGCGCTCCAAGCGCTAGCACGGCGTGTTCTTCCGACAACGTTCTTAAAAAAACTTCTCTCTCCCAGGTCACACCAGTCACAGAGATTGGCTGTGAGTGTCGCTGTGCACAAACCGCGCACAGACTCATACAGTCCCGGCGGTTCCGTTCACAACCCACGCCTCATCCCCACCGACCCAACACACACCCCACAGTCATCGCCACCGTCATCCACAACTCCGACCGACGTCGACCTGCACCAAGACCAGACTGTCCCCAAACTGCACACCCTCTAATACTGTTACCGAGATTTCTTCGTCGTTTGTTCTTGGAAAGACAGCGCTGGGGATCGTTCGCTGGATACCACCCGCATAACTGGCTCGTCGCGGTGGGTCAGAGGTCAATGATGAACTTTCAAGTTGACGTGAGAAGCTCTACGGTTGTTGTTCGACTGCTGTTGCGGCCGTCGTGGCGGGTCACGCGTCATGGGCATTCGTCGTTGGCAGTCCCCACGCTAGCGGGGCGCTAGCCACGGGATCGAACTCATCGTGAGGTGAAAGGGCGCAATGGACGCGGCTACGACAAGAGTTGGCCTCACCGACTTGACGTTTCGTTTGCTACGAGAGTCTTTCGCCGATGCGGTGTCGTGGGTGGCTAAAAATCTGCCAGCCAGGCC (double strand) [oriC fragment],binding result,DnaA + NapM,binds
same,Kd,[1],458 nM
